Measured values from several laboratories, pooled; numbers as filed in NIAID ChemDB.

Common to all: enzyme or target tests; organism: HIV-1; protein: Protease

Percent inhibition refers to the dose given; in toxicity tests it is the harm to the cells. An empty or dashed field is not shown. Fold resistance: result on the changed form divided by that on wild type. Rows are shuffled and stem from different studies. ICn is the concentration giving n% inhibition.

structure | changes | method | endpoint | dose | result
O=S1(=O)N(Cc2ccc(-c3cccs3)cc2)[C@H](COc2ccccc2)[C@H](O)[C@@H](O)[C@@H](COc2ccccc2)N1Cc1ccc(-c2cccs2)cc1 | PR-G48V L90M | - | fold resistance | - | 19.6
CC(C)(C)OC(=O)N[C@@H](Cc1ccccc1)[C@H](O)CNC[C@@H](O)[C@H](Cc1ccc(OCC(=O)N2CCOCC2)cc1)NC(=O)OC(C)(C)C | PR-A71T | HPLC | fold resistance | - | 1.74
CC(C)[C@H](NC(=O)NCc1ccccc1)C(=O)N[C@@H](Cc1ccccc1)C(O)[C@H](Cc1ccccc1)NC(=O)[C@@H](NC(=O)NCc1ccccc1)C(C)C | - | fluorescence | inhibition | 0.005 µM | 78%
CC(C)[C@H](NC(=O)N(C)Cc1ccccn1)C(=O)N[C@@H](Cc1ccccc1)[C@H](O)[C@H](O)[C@H](Cc1ccccc1)NC(=O)[C@@H](NC(=O)N(C)Cc1ccccn1)C(C)C | PR-M46I | fluorescence | fold resistance | - | 1.43
C/C(=N\O)c1cccc(CN2[C@H](COc3ccccc3)[C@H](O)[C@@H](O)[C@@H](COc3ccccc3)N(Cc3cccc(/C(C)=N/O)c3)S2(=O)=O)c1 | PR-G48V L90M | - | fold resistance | - | 1.86
CC(C)[C@H](NC(=O)N(C)Cc1ccccn1)C(=O)N[C@@H](Cc1ccccc1)[C@H](O)[C@H](O)[C@H](Cc1ccccc1)NC(=O)[C@@H](NC(=O)N(C)Cc1ccccn1)C(C)C | PR-V82A | HPLC | fold resistance | - | 5
Cc1cc(SC2=C(O)C[C@@](CCc3ccc(N)cc3)(C(C)C)OC2=O)c(C(C)(C)C)cc1CO | PR-V82A | HPLC / absorbance | fold resistance | - | 1.3
CNC(=O)[C@@H](NC(=O)[C@H](OCc1ccccc1)[C@H](O)[C@@H](O)[C@@H](OCc1ccccc1)C(=O)N[C@H]1c2ccccc2C[C@H]1O)C(C)C | PR-I84V L90M | - | fold resistance | - | 3.57
CC(C)[C@H](NC(=O)OCc1ccccn1)C(=O)N[C@@H](Cc1ccccc1)[C@H](O)[C@H](O)[C@H](Cc1ccccc1)NC(=O)[C@@H](NC(=O)OCc1ccccn1)C(C)C | - | fluorescence | IC50 | - | <0.001 µM
Cc1cc(SC2=C(O)C[C@@](CCc3ccc(O)cc3)(C(C)C)OC2=O)c(C(C)(C)C)cc1CO | PR-D30N | HPLC / absorbance | fold resistance | - | 4.3
CC(C)C(NC(=O)[C@@H](NC(=O)OCc1ccccc1)C(C)C)C(F)(F)C(O)C(CC1CCCCC1)NC(=O)[C@@H](NC(=O)OCc1ccccc1)C(C)C | - | fluorescence | inhibition | 0.0025 µM | 59%
Cc1cc(SC2=C(O)CC(CCc3ccc(O)cc3)(C3CCCCC3)OC2=O)c(C(C)(C)C)cc1CO | PR-V32I | HPLC / absorbance | fold resistance | - | 17
CC[C@H](C)[C@H](NC(=O)OCc1ccccc1)C(=O)N[C@@H](Cc1ccccc1)C(O)[C@H](Cc1ccccc1)NC(=O)[C@@H](NC(=O)OCc1ccccc1)[C@@H](C)CC | - | fluorescence | inhibition | 0.005 µM | 52%
O=S1(=O)N(Cc2cccc(-c3cccs3)c2)[C@H](COc2ccccc2)[C@H](O)[C@@H](O)[C@@H](COc2ccccc2)N1Cc1cccc(-c2cccs2)c1 | PR-G48V L90M | - | fold resistance | - | 8.18
CC(C)(C)OC(=O)N[C@@H](Cc1ccccc1)[C@H](O)[C@H](O)[C@H](Cc1ccccc1)NC(=O)OC(C)(C)C | PR-R8Q | fluorescence | fold resistance | - | 1.68
CC(C)[C@H](NC(=O)OCCN1CCOCC1)C(=O)N[C@@H](Cc1ccccc1)C(O)[C@H](Cc1ccccc1)NC(=O)[C@@H](NC(=O)OCCN1CCOCC1)C(C)C | - | fluorescence | inhibition | 0.1 µM | 35%

Repeating the final 2 entries:

structure	changes	method	endpoint	dose	result
CC(C)(C)OC(=O)N[C@@H](Cc1ccccc1)[C@H](O)[C@H](O)[C@H](Cc1ccccc1)NC(=O)OC(C)(C)C	PR-R8Q	fluorescence	fold resistance	-	1.68
CC(C)[C@H](NC(=O)OCCN1CCOCC1)C(=O)N[C@@H](Cc1ccccc1)C(O)[C@H](Cc1ccccc1)NC(=O)[C@@H](NC(=O)OCCN1CCOCC1)C(C)C	-	fluorescence	inhibition	0.1 µM	35%